Values from PubChem BioAssay AID504761 (Drosophila RNAi Screening Center, 2011)
Aim: 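Fly genes whose silencing reduces dengue virus type 2 infection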 (primary screen). System: D.Mel-2 cells from Drosophila. Knock-down reagent: long dsRNA against Drosophila genes. Conditions: infection with dengue virus type 2; dose and infection time not stated. Read-out: 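Cells stained for dengue envelope protein and imaged; percent of infected cells per well on duplicate plates, ranked by infection, with stained nuclei counted for cell number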. Reading the numbers: infection score: higher = more virus-infected cells; cell count: higher = more cells in the well. Call rule: 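Low infection ranks in the two replicates (chance level up to 0.065) followed by a retest with a 1.5-fold or larger significant decrease, p below 0.05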. Calls: active = confirmed: knock-down lowers infection; inactive = not picked or not confirmed.
The screen tested about 22,000 reagents; this is a random part of those with a known target gene and a result. Over the whole deposit, 116 (0.52%) are marked active. 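Calls depend on retest data that are not deposited; infection was ranked per plate without normalising between plates; the unit of the infection score is not given.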 The raw values are shown without normalisation. Names joined by + are all predicted targets of the reagent. The record does not give: the amount of reagent, the time to read-out.

no.	Gene	dsRNA	infection score, replicate 1	infection score, replicate 2	cell count, replicate 1	cell count, replicate 2	Call
1	Sf3b5 (Splicing factor 3b subunit 5)	DRSC14460	13.1	22.4	2600	3051	inactive
2	ppk6 (pickpocket 6)	DRSC06062	3.29	1.93	6056	6364	inactive
3	ppk6 (pickpocket 6)	DRSC29267	9.7	14	6185	5915	inactive
4	DIP-delta (Dpr-interacting protein delta)	DRSC10214	10	20.8	5657	5392	inactive
5	DIP-delta (Dpr-interacting protein delta)	DRSC10450	11.6	8.33	5801	5785	inactive
6	CG10734	DRSC05998	9.78	26.3	6545	5400	inactive
7	CG10996	DRSC19363	10.1	7.15	5875	6165	inactive
8	crok (crooked)	DRSC02593	3.99	7.39	5959	6074	inactive
9	crok (crooked)	DRSC21349	3.16	13.2	6072	6360	inactive
10	crok (crooked)	DRSC29822	12.1	6.47	6484	6386	inactive
11	SerRS-m (Seryl-tRNA synthetase, mitochondrial)	DRSC14096	4.72	4.59	5461	5534	inactive
12	CG10581	DRSC11623	12.7	9.91	5889	6096	inactive
13	beat-Vb (beaten path Vb)	DRSC12940	8.89	0.93	5533	5498	inactive
14	beat-Vb (beaten path Vb)	DRSC14844	13.4	2.5	6230	6602	inactive
15	beat-Vb (beaten path Vb)	DRSC14845	2.47	3.25	6393	6428	inactive
16	row (relative of woc)	DRSC07076	6.72	4.18	5502	5959	inactive
17	row (relative of woc)	DRSC07077	15.9	30.8	4914	4716	inactive
18	CG4984 + CG4975	DRSC06907	7.37	7.36	7025	6646	inactive
19	CG4984 + CG4975	DRSC06908	18.6	26.2	6142	5820	inactive
20	CG43394	DRSC01013	0.11	0.14	6227	6408	inactive
21	CG43394	DRSC28255	14.2	8.9	6047	5806	inactive
22	Madm (MLF1-adaptor molecule)	DRSC12129	9.57	7.5	6136	6172	inactive
23	Madm (MLF1-adaptor molecule)	DRSC25999	4.88	15.2	6150	6031	inactive
24	AOX2 (Aldehyde oxidase 2)	DRSC15338	3.5	2.87	6519	6482	inactive
25	CG32371	DRSC22209	2.78	7.14	6730	6777	inactive
26	CG32371	DRSC26049	5.72	3.03	5453	6540	inactive
27	CG13318	DRSC14581	0.29	5.1	6287	6409	inactive
28	unc-13-4A	DRSC10201	6.35	5.43	6409	5175	inactive
29	unc-13-4A	DRSC10202	0.68	4.39	6310	5785	inactive
30	unc-13-4A	DRSC11013	1.88	13.2	6597	5562	inactive
31	CG9547	DRSC03260	1.65	4.09	5864	6411	inactive
32	CG9547	DRSC27269	3.18	6.63	6351	6232	inactive
33	CG31468	DRSC13637	1.01	2.04	5933	6178	inactive
34	Grl58a (Gustatory receptor-like 58a)	DRSC04145	3.02	2.64	6589	6749	inactive
35	CG33125	DRSC00145	4.78	1.19	5105	5566	inactive
36	CG33125	DRSC28619	3.12		1795	380	inactive
37	BomS6 (Bomanin Short 6)	DRSC21676	1.95	4.93	6511	6719	inactive
38	BomS6 (Bomanin Short 6)	DRSC26792	0.33	15.3	1498	6564	inactive
39	CG30391	DRSC21572	1.92	1.51	6858	7103	inactive
40	Snmp1 (Sensory neuron membrane protein 1)	DRSC16168	17.1	5.6	5137	1197	inactive
41	CG1344	DRSC04837	21.6	39.2	6410	5816	inactive
42	aop (anterior open)	DRSC22999	0.95	14	5656	1790	inactive
43	aop (anterior open)	DRSC25805	4.82	1.96	6310	7045	inactive
44	pim (pimples)	DRSC03591	14.6	4.15	6131	5873	inactive
45	Cyp28a5 (Cytochrome P450 28a5)	DRSC03297	27.3	4.84	5404	5935	inactive
46	CG13898	DRSC08368	2.99	1.39	6114	6276	inactive
47	snoRNA:U31:54Ec + snoRNA:snR38:54Eb + snoRNA:U27:54Eb + 8 more	DRSC06458	26.4	11.8	5748	6734	inactive
48	Arpc4 (Actin-related protein 2/3 complex, subunit 4)	DRSC02917	12.4	17.3	5454	5385	inactive
49	Arpc4 (Actin-related protein 2/3 complex, subunit 4)	DRSC29608	10.3	8.51	5599	2810	inactive
50	CG32388	DRSC08861	0.62	1.01	6148	5923	inactive
51	Pli (Pellino)	DRSC16792	3.28	2.91	5796	6502	inactive
52	CG30156	DRSC04959	1.84	0.67	6134	5979	inactive
53	CG2121	DRSC06819	19.2	6.76	5671	6409	inactive
54	CG2121	DRSC06820	1.47	6.67	6724	6728	inactive
55	CG1504	DRSC20513	4.15	4.42	4436	5839	inactive
56	CG1504	DRSC26901	5.86	1.73	6241	6364	inactive
57	cag	DRSC07587	6.45	8.21	6422	6909	inactive
58	cag	DRSC29225		2.3	372	784	inactive
